A mixed list of measured activities; the numbers were collected in NIAID ChemDB.

Common to all: whole-cell or culture tests; organism: Mycobacterium tuberculosis

Neighbouring rows are from separate reports.

SMILES	dose	endpoint	mutations	method	strain or isolate	value
CC(=O)OCC1=C(C(=O)O)N2C(=O)[C@@H](NC(=O)Cc3cccs3)[C@H]2SC1		MIC			H37Rv	>16 µg/mL
Cc1ccc(S(=O)(=O)OCCn2sc3nc(C)cc(C)c3c2=O)cc1		EC50			H37Rv	>12.5 µg/mL
C1=C(c2nc(-c3cccnc3)no2)c2ccccc2C12CCN(CC1CCCO1)CC2		MIC	Streptomycin-resistant	resazurin	136570	0.78 µM
C=C(C)[C@@H]1CC[C@@]2(CO)C1C1CCC3[C@@]4(C)CC[C@H](O)C(C)(C)C4CC[C@@]3(C)[C@]1(C)C[C@@H]2O		MIC			H37Rv	>64 µg/mL
CCCCCC(CC)O/N=C/c1c2c(O)c3c(O)c(C)c4c(c3c1O)C(=O)[C@@](C)(O/C=C/[C@H](OC)[C@@H](C)[C@@H](OC(C)=O)[C@H](C)[C@H](O)[C@H](C)[C@@H](O)[C@@H](C)/C=C/C=C(/C)C(=O)N2)O4		MIC			H37Rv	2 µg/mL
CC1(C)CC[C@]2(C)[C@@H](O)C[C@]3(C)C(=CCC4[C@@]5(C)CC[C@H](O)C(C)(C)[C@@H]5CC[C@]43C)[C@@H]2C1		MIC			H37Rv	4 µg/mL
CCN(CC)CCn1nc2n(c(=O)c1=O)CC(=O)N(C)c1ccc(Cl)cc1-2		MIC bound		BACTEC	H37Rv	>12.5 µg/mL
CC(=O)c1ccccc1Sc1nnc(N2CCN(c3nc(N4CCN(c5ccccc5)CC4)c4ccccc4n3)CC2)o1	200 µg/mL	inhibition		agar / visual reading	H37Rv	85%
O=c1ccc2ccc3occc(=O)c3c2o1		MIC bound		BACTEC	H37Rv	>12.5 µg/mL
N=C(N)N1N=C(/C=C/c2ccc(Cl)cc2)CC1c1ccc(Cl)cc1		MIC	katG S315T isoniazid resistant	resazurin	RGH103	0.58 µM
CCC1=C(c2ccc(OC)cc2)C(C)(C)Oc2cc(O)c(CN3CCCC3)cc21		MIC bound		BACTEC	H37Rv	≤12.5 µg/mL
C[C@H]1C2C3CCC4[C@@]5(C)CC[C@H](O)C(C)(C)C5CC[C@@]4(C)[C@]3(C)C[C@H](O)[C@@]2(C)C[C@H]2O[C@]21C		MIC			H37Rv	32 µg/mL
COc1ccc(-c2noc(C3=CC4(CCN(CC5CCCO5)CC4)c4ccccc43)n2)cc1		MIC	Drug-resistant	resazurin	ATCC 2794	0.39 µM
NC(=O)C1CCCN1C(=O)c1ccc[n+](Cc2ccc(C[n+]3cccc(C(=O)N4CCCC4C(N)=O)c3)cc2)c1		MIC bound		BACTEC	H37Rv	>12.5 µg/mL
CN[C@@H]1[C@H](O[C@H]2[C@H](O[C@H]3[C@H](O)[C@@H](O)[C@H](N=C(N)N)[C@@H](O)[C@@H]3N=C(N)N)O[C@@H](C)[C@]2(O)C=O)O[C@@H](CO)[C@H](O)[C@H]1O		MIC	Drug-resistant	resazurin	D-211	0.5 µM
CCOc1ccc2ccccc2c1C(=O)N[C@@H]1C(=O)N2[C@@H]1SC(C)(C)[C@@H]2C(=O)O		MIC			Isolate 5	>16 µg/mL
C1=C(c2nc(-c3ccsc3)no2)c2ccccc2C12CCN(CC1CCCO1)CC2		MIC		resazurin	H37Rv	1.1 µM
N#Cc1c(N)nc2c3c1NC(=O)C(C(N)=O)C3c1ccccc1O2	6.25 µg/mL	inhibition		resazurin	H37Rv	16%
CC(=O)C1=C(O)c2c(C)cc(C)nc2S(=O)(=O)N1CC(=O)c1ccccc1	12.5 µg/mL	inhibition			H37Rv	10%
O=C(Cc1cccs1)N[C@@H]1C(=O)N2C(C(=O)[O-])=C(C[n+]3ccccc3)CS[C@H]12		MIC			H37Rv	>16 µg/mL
C1=C(c2nc(-c3ccccc3)no2)c2ccccc2C12CCN(CC1CC1)CC2		EC80		resazurin	ss18b	50 µM
Cc1cc(C)c2c(=O)n(CO)sc2n1		MIC			H37Rv	>12.5 µg/mL
O=[N+]([O-])c1cccc(Sc2nnc(N3CCN(c4nc(N5CCN(c6ccccc6)CC5)c5ccccc5n4)CC3)o2)c1	6.25 µg/mL	inhibition		BACTEC / fluorescence	H37Rv	0%
CN(C)C/C=C(\c1ccc(Cl)cc1)c1ccc(-c2ccc(Br)cc2)cc1		MIC			ALI 536	≤5 µg/mL
Cc1nc(C(N)=O)c(C(N)=O)nc1C		MIC bound		BACTEC	H37Rv	>12.5 µg/mL
O=C(c1ccc([N+](=O)[O-])o1)N1CCc2cc(N3CCN(Cc4ccccc4)CC3)ccc2C1		MIC			UT30	0.012 µg/mL
Cc1cccc(/C=N/NC(=S)N(C)C)n1.[Cl][Cu][Cl]		MIC90			V4207	1.56 µM
NC1CCN(c2c(F)cc3c(=O)c(C(=O)O)cn(C4CC4)c3c2Cl)C1		MIC50			20 strains	0.5 µg/mL
CN(C)CC=C(c1ccccc1)c1ccc(-c2ccc(Br)cc2)cc1		MIC			ALI 258	≤5 µg/mL
COc1cccc2c(=O)n3c(nc12)C(=O)c1cc(F)ccc1-3		MIC			H37Rv	0.06 µg/mL
CC1CCN(SSc2nc3ccccc3s2)CC1		MIC		BACTEC	H37Rv	12.5 µg/mL
CC(C)=CCC[C@H](C)[C@@H]1CC[C@]2(C)[C@H]3CCC4(OC4(C)C)[C@@H](CCCO)[C@]3(C)CC[C@@]12C		MIC			H37Rv	4 µg/mL
COc1cc(/C=N/NC(=O)C[N+](C)(C)C)cc(I)c1O	12.5 µg/mL	inhibition		BACTEC	H37Rv	10%
O=C1c2cc(I)ccc2-n2c1nc1ncccc1c2=O		MIC			TN913RFLP:C (DRUG sensitive)	0.06 µg/mL
CC1=C(N)C(=O)C2=C(C1=O)N1C[C@H]3[C@H](N3C)[C@]1(O)[C@@H]2COC(N)=O		MIC			EMB-R	1.6 µg/mL
COc1ccc2c(c1)C(=O)c1nc3ccccc3c(=O)n1-2		MIC			H37Rv	0.5 µg/mL
COc1ccc(-c2noc(C3=CC4(CCN(CCS(N)(=O)=O)CC4)c4ccccc43)n2)cc1		MIC		resazurin	H37Rv	>100 µM
CCCCN(CC)C(=O)C(=O)C1C(=O)Nc2ccccc2S1=O	6.25 µg/mL	inhibition		resazurin	H37Rv	16%
NNC(=O)c1ccncc1		MIC		BACTEC	JHU H37Rv	0.023 µg/mL
COc1ccc(NC(=O)C(=O)NNC(=O)c2sc(NNC(C)=O)nc2C)c([N+](=O)[O-])c1		MIC bound		resazurin	H37Rv	>6.25 µg/mL
Cc1cc(C)c2c(n1)S(=O)(=O)N(CC(=O)NC1CCCCC1)/C(=C(/O)c1ccccc1)C2=O	12.5 µg/mL	inhibition			H37Rv	28%
CCOC(=O)N1CCN(c2ccc(C3CC(c4ccc([N+](=O)[O-])o4)=NO3)cc2)CC1		MIC			UT18	0.0008 µg/mL
C=C(C)[C@@H]1CC[C@@]2(C)[C@H]1[C@H]1CC[C@@H]3[C@@]4(C)CC[C@H](O)C(C)(C)[C@@H]4CC[C@@]3(C)[C@]1(C)C[C@@H]2O		MIC			H37Rv	64 µg/mL
CC[C@@H](CO)NCCN[C@@H](CC)CO		MIC	Ethambutol-resistant	resazurin	17003	>19.5 µM
N=C(N)N1N=C(/C=C/c2ccccc2)CC1c1ccccc1		MIC		resazurin	H37Rv	2.15 µM
COC(C)CCO/N=C/c1c2c(O)c3c(O)c(C)c4c(c3c1O)C(=O)[C@@](C)(O/C=C/[C@H](OC)[C@@H](C)[C@@H](OC(C)=O)[C@H](C)[C@H](O)[C@H](C)[C@@H](O)[C@@H](C)/C=C/C=C(/C)C(=O)N2)O4		MIC			H37Rv	0.1 µg/mL
N#Cc1ccc(Sc2nnc(N3CCN(c4nc(N5CCN(c6ccccc6)CC5)c5ccccc5n4)CC3)o2)cc1		MIC		agar / visual reading	H37Rv	12.5 µg/mL
CC1(C)OC(=O)N(CO)C1=O		MIC bound		BACTEC	H37Rv	>12.5 µg/mL
CO[C@H]1/C=C/O[C@@]2(C)Oc3c(C)c(O)c4c(O)c(c(/C=N/OCc5ccc(Cl)cc5Cl)c(O)c4c3C2=O)NC(=O)/C(C)=C\C=C\[C@H](C)[C@H](O)[C@@H](C)[C@@H](O)[C@@H](C)[C@H](OC(C)=O)[C@@H]1C		MIC			H37Rv	>5 µg/mL
CN(C)C/C=C(/c1ccccc1)c1ccc(-c2ccc(Br)cc2)cc1		MIC			ALI 3342	10 µg/mL
CNc1cccc2c1C(=O)c1ccccc1C2=O	12.5 µg/mL	inhibition		BACTEC	H37Rv	-15%
C[C@H]1[C@H](C)CC[C@]2(C)CC[C@]3(C)C(=CC[C@@H]4[C@@]5(C)CC[C@H](O)C(C)(C)[C@@H]5CC[C@]43C)[C@H]12		MIC			H37Rv	32 µg/mL
O=C(NCc1ccc(N2CCN(Cc3ccccc3)CC2)cc1)c1ccc([N+](=O)[O-])o1		MIC			HN878	0.05 µg/mL
CO[C@H]1/C=C/O[C@@]2(C)Oc3c(C)c(O)c4c(O)c(c(/C=N/OCCCCOc5ccccc5)c(O)c4c3C2=O)NC(=O)/C(C)=C\C=C\[C@H](C)[C@H](O)[C@@H](C)[C@@H](O)[C@@H](C)[C@H](OC(C)=O)[C@@H]1C		MIC			H37Rv	0.5 µg/mL
COc1cc(/C=C/C2=NN(C(=N)N)C(c3cc(OC)c(OC)c(OC)c3)C2)cc(OC)c1OC		MIC	katG S315T isoniazid resistant	resazurin	RGH103	5.31 µM
O=C1c2c(cccc2C(F)(F)F)-n2c1nc1ncccc1c2=O		MIC			H37Rv	>8 µg/mL
CN(C)C/C=C(/c1ccc(Br)cc1)c1ccc(-c2ccc(Br)cc2)cc1		MIC			ALI 258	8.5 µg/mL
CCOC(=O)Cn1sc2nc(C)cc(C)c2c1=O		EC50			H37Rv	<12.5 µg/mL
COCc1ccc2c(c1)C(=O)c1nc3ccncc3c(=O)n1-2		MIC			H37Rv	0.13 µg/mL
CN(C)CC=C(c1ccc(Br)cc1)c1ccc(-c2ccc(Br)cc2)cc1		MIC			ALI 3236	34 µg/mL
O=C1N=NC(=O)C2C1NC(=S)N2c1ccccc1		MIC bound		BACTEC	H37Rv	>12.5 µg/mL
CO[C@H]1/C=C/O[C@@]2(C)Oc3c(C)c(O)c4c(=O)c(c5oc6cc(N7CCN(CC(C)C)CC7)cc(=O)c6nc5c4c3=C2O)NC(=O)/C(C)=C\C=C\[C@H](C)[C@H](O)[C@@H](C)[C@@H](O)[C@@H](C)[C@H](OC(C)=O)[C@@H]1C		MIC			TBSMI-1 (rifampin-susceptible)	<0.01 µg/mL
CCNc1cc2oc(=O)cc(C(F)(F)F)c2cc1C	12.5 µg/mL	inhibition		BACTEC	H37Rv	-39%
COc1ccccc1NNC(=O)N1CCN(c2nc(N3CCN(c4ccccc4)CC3)c3ccccc3n2)CC1	25 µg/mL	inhibition		agar / visual reading	H37Rv	95%
Cc1ccc([N+](=O)[O-])cc1NC(=O)NNC(=O)CNC(=O)NCc1ccco1		MIC bound		BACTEC	H37Rv	>12.5 µg/mL
O=Cc1ccc(NNC(=O)N2CCN(c3nc(N4CCN(c5ccccc5)CC4)c4ccccc4n3)CC2)cc1	50 µg/mL	inhibition		agar / visual reading	H37Rv	92%
O=C(NCCN1CCCC1)c1cn2c(ccc3sc4ccccc4c(=O)c32)n1	12.5 µg/mL	inhibition		BACTEC	H37Rv	96%
CCCCCN(CCCCC)c1ccc2c(=O)n3c(nc2c1)C(=O)c1cc(Cl)ccc1-3		MIC			H37Rv	2 µg/mL
COC1=C2CC(C)CC(OC)C(O)C(C)/C=C(\C)C(OC(N)=O)C(OC)/C=C\C=C(/C)C(=O)NC(=C(C=NC(C)(C)C)C1=O)C2=O		MIC			EMB-R	>12.5 µg/mL
CN(C)C/C=C(\c1ccc(N)cc1)c1ccc(-c2ccc(Br)cc2)cc1		MIC			ALI 258	19.5 µg/mL
Nc1nn2c(=O)c3ccccc3nc2s1		MIC bound		resazurin	H37Rv	>6.25 µg/mL
CC1(C)S[C@@H]2[C@H](NC(=O)[C@H](N)c3ccc(O)cc3)C(=O)N2[C@H]1C(=O)O		MIC			Isolate 1	>16 µg/mL
CC(=O)c1c(CO[N+](=O)[O-])n([O-])c2ccccc2[n+]1=O		MIC bound		BACTEC	H37Rv	>12.5 µg/mL
O=C1c2ccccc2-n2c1nc1ccc(O)cc1c2=O		MIC			H37Rv	>8 µg/mL

Repeating the first 7 entries:

SMILES | dose | endpoint | mutations | method | strain or isolate | value
CC(=O)OCC1=C(C(=O)O)N2C(=O)[C@@H](NC(=O)Cc3cccs3)[C@H]2SC1 |  | MIC |  |  | H37Rv | >16 µg/mL
Cc1ccc(S(=O)(=O)OCCn2sc3nc(C)cc(C)c3c2=O)cc1 |  | EC50 |  |  | H37Rv | >12.5 µg/mL
C1=C(c2nc(-c3cccnc3)no2)c2ccccc2C12CCN(CC1CCCO1)CC2 |  | MIC | Streptomycin-resistant | resazurin | 136570 | 0.78 µM
C=C(C)[C@@H]1CC[C@@]2(CO)C1C1CCC3[C@@]4(C)CC[C@H](O)C(C)(C)C4CC[C@@]3(C)[C@]1(C)C[C@@H]2O |  | MIC |  |  | H37Rv | >64 µg/mL
CCCCCC(CC)O/N=C/c1c2c(O)c3c(O)c(C)c4c(c3c1O)C(=O)[C@@](C)(O/C=C/[C@H](OC)[C@@H](C)[C@@H](OC(C)=O)[C@H](C)[C@H](O)[C@H](C)[C@@H](O)[C@@H](C)/C=C/C=C(/C)C(=O)N2)O4 |  | MIC |  |  | H37Rv | 2 µg/mL
CC1(C)CC[C@]2(C)[C@@H](O)C[C@]3(C)C(=CCC4[C@@]5(C)CC[C@H](O)C(C)(C)[C@@H]5CC[C@]43C)[C@@H]2C1 |  | MIC |  |  | H37Rv | 4 µg/mL
CCN(CC)CCn1nc2n(c(=O)c1=O)CC(=O)N(C)c1ccc(Cl)cc1-2 |  | MIC bound |  | BACTEC | H37Rv | >12.5 µg/mL

ECn: concentration that inhibits the pathogen or its effect by n%. A number after MIC or MFC names an inhibition level or a share of isolates. MIC bound: limit read from a one-dose screen. Percent inhibition refers to the dose given; in toxicity tests it is the harm to the cells. An empty or dashed field is not shown.